We go through 74 molecules from PubChem BioAssay AID485294 (National Center for Advancing Translational Sciences (NCATS), 2010).

Protein sequences, listed by entry. Tags and fused reporters are not part of them.
UniProt P00811, whole entry: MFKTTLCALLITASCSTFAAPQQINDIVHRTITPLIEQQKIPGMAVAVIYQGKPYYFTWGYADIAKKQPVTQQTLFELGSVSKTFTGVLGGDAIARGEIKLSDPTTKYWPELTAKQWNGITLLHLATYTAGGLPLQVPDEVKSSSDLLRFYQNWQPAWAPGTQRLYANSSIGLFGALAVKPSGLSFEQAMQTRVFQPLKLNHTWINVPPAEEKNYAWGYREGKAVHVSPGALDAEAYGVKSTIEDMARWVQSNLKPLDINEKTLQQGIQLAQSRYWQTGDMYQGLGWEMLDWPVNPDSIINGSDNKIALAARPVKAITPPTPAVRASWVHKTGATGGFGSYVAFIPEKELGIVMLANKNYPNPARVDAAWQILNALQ

Molecules are shown by their SMILES. Only a part is listed here, and it is no random draw. Results filed as inconclusive are left out. Some salts or complexes appear as unconnected parts, following the source record. Active and inactive are the calls of the source. Calls follow the shape of the dose curve; as a rule, active = well fitted inhibition curve with a large enough effect; inconclusive = small, poorly fitted or top-dose-only effect; inactive = flat fitted curve, though single readings scatter.

The target in the assay is Beta-lactamase (Escherichia coli (strain K12)) (UniProt P00811). Briefly: qHTS Inhibitors of AmpC Beta-Lactamase (assay with detergent).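 Also: 0% = no-compound wells and -100% = no-enzyme wells; nearly all actives have a fitted effect of over 25% in size.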 The following applies: AmpC hydrolysis of nitrocefin, absorbance 480 nm, 0.01% Triton; at 114 µM (top of the series).
Take `CN(C)C1(CNC(=O)c2cccc(C#N)c2)CCCCC1`: the activity change, negative = inhibition is inactive: -8.54%. Take `c1ccc(CN2CCC(Nc3ccccc3)CC2)cc1`: the activity change, negative = inhibition is inactive: 2.46%. Consider `CCCN1CCC(Nc2cc(OC)cc(OC)c2)CC1`, for which the activity change, negative = inhibition was inactive: -2.73%. As for `O=C(NCC1(N2CCOCC2)CCCCC1)c1ccccc1`, the activity change, negative = inhibition was inactive: 21.3%. Turning to `N#Cc1ccc(C(=O)NCC2(N3CCCCC3)CCCCC2)cc1`, the activity change, negative = inhibition is inactive: -1.16%.

As to `O=C(NCC1(N2CCOCC2)CCCCC1)c1ccccc1[N+](=O)[O-]`, the activity change, negative = inhibition was inactive: 23.1%. Regarding `O=C(NCC1(N2CCOCC2)CCCCC1)c1ccc([N+](=O)[O-])cc1`, the activity change, negative = inhibition is inactive: 24.9%. With `CC(C)(C)OC(=O)N1CCC(N(C(=O)c2ccccc2)c2ccc(Cl)cc2)CC1`, the activity change, negative = inhibition is inactive: -10.4%. With `CCOC(=O)N1CCC(Nc2ccc(C)cc2)CC1`, the activity change, negative = inhibition is inactive: -8.76%. Take `N/C(=N\O)c1c(N)no[n+]1[O-]`: the activity change, negative = inhibition is inactive: -11.5%. For the molecule `O=C(OC1CN2CCC1CC2)C1c2ccccc2C=Cc2ccccc21` (centres undefined), the activity change, negative = inhibition is inactive: -10.4%. Consider `O=C(O)c1cccc(Nc2c([N+](=O)[O-])cc([N+](=O)[O-])cc2[N+](=O)[O-])c1`, for which the activity change, negative = inhibition is inactive: -11.3%. For the molecule `O=C(NCC1(N2CCOCC2)CCCCC1)c1cc(Br)ccc1Cl`, the activity change, negative = inhibition was inactive: -5.66%. With `COc1ccc(C(=O)NCC2(N3CCOCC3)CCCCC2)cc1OC` the figure was inactive: 7.49%; with `COc1cc(C(=O)NCC2(N3CCOCC3)CCCCC2)cc(OC)c1OC`, inactive: 17.8%; with `COc1cc(OC)cc(C(=O)NCC2(N3CCOCC3)CCCCC2)c1`, inactive: 3.02%. On to `COc1cccc(C(=O)N(c2cc(C)cc(C)c2)C2CCN(C(=O)OC(C)(C)C)CC2)c1`, for which the activity change, negative = inhibition is inactive: -2.36%.

For `CCC(CO)(C(=O)OC1CN2CCC1CC2)c1ccccc1` (centres undefined), the activity change, negative = inhibition is inactive: -12.6%. In the case of `CN1CCC(Nc2ccc(Cl)cc2)CC1`, the activity change, negative = inhibition is inactive: -0.973%. The figure for `CCCOc1ccc(C)cc1CN(CCCl)CCCl` is inactive: -6.89%. The figure for `CCOc1ncccc1C(=O)NCC1(N2CCOCC2)CCCCC1` is inactive: 3.88%; for `CCCOc1ccc(C(=O)NCC2(N(C)C)CCCCC2)cc1` it is inactive: 3.48%. `Cc1ccccc1C(=O)NCC1(N(C)C)CCCCC1`: the activity change, negative = inhibition is inactive: 2.55%.

Consider `O=C(NCC1(N2CCCCC2)CCCCC1)c1ccco1`, for which the activity change, negative = inhibition is inactive: -7.64%.

Turning to `CC(C)(C)c1ccc(C(=O)NCC2(N3CCOCC3)CCCCC2)cc1`, the activity change, negative = inhibition is inactive: 16%.

For the molecule `CN(C)c1ccc(C(=O)NCC2(N3CCCCC3)CCCCC2)cc1`, the activity change, negative = inhibition was inactive: 4.36%. On to `CN(C)C1(CNC(=O)c2ccc(C(C)(C)C)cc2)CCCCC1`, for which the activity change, negative = inhibition is inactive: 15.6%. As for `COc1cc(OC)cc(C(=O)NCC2(N3CCCCC3)CCCCC2)c1`, the activity change, negative = inhibition was inactive: -2.16%. In the case of `Cc1ccc(C(=O)NCC2(N3CCCCC3)CCCCC2)o1`, the activity change, negative = inhibition was inactive: -12.8%. As to `CCOC(=O)N1CCC(Nc2cccc(C)c2)CC1`, the activity change, negative = inhibition is inactive: -0.114%. Take `COc1cc(C(=O)NCC2(N(C)C)CCCCC2)ccc1OC(F)F`: the activity change, negative = inhibition was inactive: 2.3%. Consider `Cc1ccc(OCC(C)C)c(CN(CCCl)CCCl)c1`, for which the activity change, negative = inhibition was inactive: 5.27%. Take `O=C(NCC1(N2CCOCC2)CCCCC1)c1ccc(Cl)cc1`: the activity change, negative = inhibition was inactive: -6%. With `CCOc1ccc(C)cc1CN(CCCl)CCCl`, the activity change, negative = inhibition was inactive: 2.34%. As to `COc1ccccc1C(=O)NCC1(N2CCOCC2)CCCCC1`, the activity change, negative = inhibition is inactive: 28.2%. Consider `O=C(NCC1(N2CCCCC2)CCCCC1)c1ccc(F)cc1`, for which the activity change, negative = inhibition is inactive: -4.98%. Turning to `COc1ccc(NC2CCN(CCc3ccccc3)CC2)c(OC)c1`, the activity change, negative = inhibition is inactive: -12.9%. With `CCOC(=O)N1CCC(Nc2ccc(F)cc2)CC1` the figure was inactive: -10.4%; with `O=C(NCC1(N2CCCCC2)CCCCC1)c1ccc(Cl)nc1`, inactive: -3.49%. For the molecule `Cc1cc(C)cc(N(C(=O)c2ccccc2)C2CCN(C(=O)OC(C)(C)C)CC2)c1`, the activity change, negative = inhibition was inactive: -11.7%. The figure for `N#CC1(Nc2ccccc2)CCN(Cc2ccccc2)CC1` is inactive: -5.48%. For the molecule `O=C(NCC1(N2CCCCC2)CCCCC1)c1ccc(Cl)s1`, the activity change, negative = inhibition is inactive: 4.98%. With `O=C(OC1CN2CCC1CC2)C1c2ccccc2Oc2ccccc21` (centres undefined), the activity change, negative = inhibition is inactive: -0.914%.

For the molecule `COc1ccc(Cl)cc1C(=O)NCC1(N2CCOCC2)CCCCC1`, the activity change, negative = inhibition was inactive: -7.02%. Consider `CCOC(=O)N1CCC(Nc2ccc(OC)cc2)CC1`, for which the activity change, negative = inhibition is inactive: -6.84%. As to `COc1ccc(C(=O)NCC2(N3CCCCC3)CCCCC2)cc1`, the activity change, negative = inhibition is inactive: 2.89%. Turning to `COc1ccc(C(=O)NCC2(N3CCCCC3)CCCCC2)c(OC)c1OC`, the activity change, negative = inhibition is inactive: -7.26%. Take `CC(C)(C)OC(=O)N1CCC(N(C(=O)c2ccccc2)c2ccc(F)cc2)CC1`: the activity change, negative = inhibition is inactive: 1.69%. For `O=C(NCC1(N2CCCCC2)CCCCC1)c1ccc(=O)[nH]c1`, the activity change, negative = inhibition is inactive: 5.85%. Take `CSc1ccccc1C(=O)NCC1(N2CCCCC2)CCCCC1`: the activity change, negative = inhibition was inactive: -5.04%. For `O=C(OC1CN2CCC1CC2)c1ccc([N+](=O)[O-])cc1` (centres undefined), the activity change, negative = inhibition is inactive: 3.59%. Take `O=C(NCC1(N2CCCCC2)CCCCC1)c1cncc(Br)c1`: the activity change, negative = inhibition was inactive: 4.87%. On to `COc1ccc2c(c1O)-c1c(O)c(OC)cc3c1[C@H](C2)[N+](C)(C)CC3.O=[N+]([O-])c1cc([N+](=O)[O-])c([O-])c([N+](=O)[O-])c1[O-]`, for which the activity change, negative = inhibition was inactive: 4.87%. For the molecule `CCCCOc1ccccc1C(=O)NCC1(N2CCOCC2)CCCCC1`, the activity change, negative = inhibition is inactive: 3.31%. For `O=C(NCC1(N2CCOCC2)CCCCC1)c1ccccc1Br`, the activity change, negative = inhibition was inactive: 0.828%. The figure for `CCCOc1ccc(C(=O)NCC2(N(C)C)CCCCC2)cc1OC` is inactive: -4.19%; for `CC(C)c1ccc(NC2CCN(C(=O)OC(C)(C)C)CC2)cc1` it is inactive: -12.7%.

Regarding `COc1ccc(CN(CCCl)CCCl)cc1Cl`, the activity change, negative = inhibition is inactive: -1.72%. `O=[N+]([O-])c1cc([N+](=O)[O-])c(OC2CCCCC2O)c([N+](=O)[O-])c1` (centres undefined): the activity change, negative = inhibition is inactive: -14.4%.

For the molecule `CN(C)c1cccc(C(=O)NCC2(N3CCCCC3)CCCCC2)c1`, the activity change, negative = inhibition was inactive: 2.43%. For `COc1cc(OC)c(C(=O)NCC2(N(C)C)CCCCC2)cc1OC`, the activity change, negative = inhibition was inactive: -7.29%.

With `O=[N+]([O-])c1cc([N+](=O)[O-])c(NCC2CCS(=O)(=O)C2)c([N+](=O)[O-])c1` (centres undefined), the activity change, negative = inhibition was inactive: 6.38%. In the case of `CCCOc1cccc(C(=O)NCC2(N3CCOCC3)CCCCC2)c1`, the activity change, negative = inhibition was inactive: -4.07%. With `COc1cc(C(=O)NCC2(N3CCCCC3)CCCCC2)ccc1OC(F)F` the figure was inactive: -5.54%; with `O=C(NCC1(N2CCOCC2)CCCCC1)c1cc(=O)[nH]c2ccccc12`, inactive: -7.95%. Turning to `CN1CCN(CCOC(=O)C(O)(c2ccccc2)c2ccccc2)CC1`, the activity change, negative = inhibition was inactive: -14.6%.

As for `COc1ccc(NC2CCN(C(=O)OC(C)(C)C)CC2)cc1`, the activity change, negative = inhibition was inactive: 1.21%. Regarding `CC(C)c1ccc(C(=O)NCC2(N3CCOCC3)CCCCC2)cc1`, the activity change, negative = inhibition is inactive: 15%. Turning to `O=C(NCC1(N2CCCCC2)CCCCC1)c1ccc(OC(F)F)cc1`, the activity change, negative = inhibition is inactive: -14.2%. For `CCN1CCC(Nc2ccc(Cl)cc2)CC1`, the activity change, negative = inhibition was inactive: -1.6%.

In the case of `N#CC1(Nc2ccccc2)CCN(CCc2ccccc2)CC1`, the activity change, negative = inhibition was inactive: 10.5%. `CSc1ccc(C(=O)NCC2(N3CCOCC3)CCCCC2)cc1`: the activity change, negative = inhibition was inactive: 0%. As to `O=C(NCC1(N2CCCCC2)CCCCC1)c1cccc([N+](=O)[O-])c1`, the activity change, negative = inhibition was inactive: 2.95%.

Take `CCOc1ccc(C(=O)NCC2(N3CCOCC3)CCCCC2)cc1`: the activity change, negative = inhibition was inactive: 23.4%.
